Experimental data: PubChem BioAssay AID504761 (Drosophila RNAi Screening Center, 2011)
Test: 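Insect host genes that dengue virus relies on to spread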 (primary screen). Cells: D.Mel-2 cells from Drosophila. Knock-down reagent: long dsRNA against Drosophila genes. Challenge: infection with dengue virus type 2; dose and infection time not stated. Measurement: 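Cells stained for dengue envelope protein and imaged; percent of infected cells per well on duplicate plates, ranked by infection, with stained nuclei counted for cell number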. Scale: infection score: higher = more virus-infected cells. Hit rule: 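Low infection ranks in the two replicates (chance level up to 0.065) followed by a retest with a 1.5-fold or larger significant decrease, p below 0.05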. Meaning of the calls: active = confirmed: knock-down lowers infection; inactive = not picked or not confirmed.
In all, the deposit lists about 22,000 reagents; shown is a random part of those with a known target gene and a result. Over the whole deposit, 116 (0.52%) were called active. 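Calls depend on retest data that are not deposited; infection was ranked per plate without normalising between plates; the unit of the infection score is not given.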 Further read-outs or replicates are left out here. The record does not give: the amount of reagent, the time to read-out.

didum (dilute class unconventional myosin) [SID104187395] | infection score, replicate 1: 3.06; outcome: inactive
CG14071 [SID104182166] | infection score, replicate 1: 0.81; outcome: active
CG33454 [SID104202272] | infection score, replicate 1: 1.62; outcome: inactive
CG33454 [SID104205311] | infection score, replicate 1: 6.41; outcome: inactive
CG5850 [SID104182697] | infection score, replicate 1: 13.8; outcome: inactive
CG31360 [SID104193047] | infection score, replicate 1: 7.22; outcome: inactive
loj (logjam) [SID104189583] | infection score, replicate 1: 9.79; outcome: inactive
CG15649 [SID104184032] | infection score, replicate 1: 8.97; outcome: inactive
CG15649 [SID104208170] | infection score, replicate 1: 26.9; outcome: inactive
Acer (Angiotensin-converting enzyme-related) [SID104181644] | infection score, replicate 1: 10.8; outcome: inactive
IntS11 (Integrator 11) [SID104195199] | infection score, replicate 1: 4.95; outcome: inactive
IntS11 (Integrator 11) [SID104205456] | infection score, replicate 1: 2.78; outcome: inactive
PGRP-LB (Peptidoglycan recognition protein LB) [SID104194718] | infection score, replicate 1: 6.53; outcome: inactive
CG3906 [SID104184223] | infection score, replicate 1: 1.43; outcome: inactive
CG3906 [SID104206475] | infection score, replicate 1: 12.6; outcome: inactive
obst-A (obstructor-A) [SID104200335] | infection score, replicate 1: 10.2; outcome: inactive
SMC5 (Structural maintenance of chromosomes 5) [SID104191641] | infection score, replicate 1: 6.05; outcome: inactive
CG7420 [SID104180496] | infection score, replicate 1: 2.12; outcome: inactive
Jra (Jun-related antigen) [SID104187239] | infection score, replicate 1: 23.6; outcome: inactive
Jra (Jun-related antigen) [SID104206150] | infection score, replicate 1: 9.19; outcome: inactive
CG14200 [SID104199347] | infection score, replicate 1: 3.75; outcome: inactive
CG14200 [SID104202336] | infection score, replicate 1: 1.51; outcome: inactive
CG14200 [SID104204328] | infection score, replicate 1: 1.54; outcome: inactive
